# Source: patent publication US20110300579
# How the values were obtained:
# [1] = biological target: purified soluble αvβ5 integrin (Millipore), not stated, P06756 31-992; P18084 24-719
# [2] = biological target: purified soluble αvβ3 integrin (Millipore), not stated, P06756 31-992; P05106 27-718
# [3] = biological target: soluble recombinant α5β1 integrin (R&D Systems), not stated, P08648 42-995; P05556 21-728
substance,measurement,setting,value
"Vicrostatin (VCN), recombinant chimeric disintegrin",pKd,[1],7.39
same,pKd,[2],8.13
same,pKd,[3],7.82

# pKd: −log10 of the molar value.
